Experimental data taken from US20230248000A1, “ANTIMICROBIAL COMPOUNDS AND METHODS OF USE” (Aequor, Inc., priority 2016, published 2023).

Key:
Assay type in all cases: cell-based, Staphylococcus aureus
S. aureus ATCC 25923 [1] = test: Biofilm removal, MBEC Assay (ASTM E2799-12)
S. aureus ATCC 25923 [2] = test: Biofilm prevention (inhibition), 96-well microplate assay
S. aureus ATCC 25923 [3] = test: Minimum Inhibitory Concentration (MIC) on planktonic bacteria, CLSI M07-A9 modified for 96 well plates; settings: lowest concentration inhibiting visible growth after overnight incubation

SMILES: CCCCOP(N)(=O)OCCCC
- Biofilm Removal (S. aureus ATCC 25923 [1]): 99.99%
- MBEC Qualitative (S. aureus ATCC 25923 [1]; microplate reader absorbance 630 nm, clear wells A630<0.1): 0.24%
- Biofilm Prevention (S. aureus ATCC 25923 [2]): 99.99%
- MIC (S. aureus ATCC 25923 [3]): 1.0%
